The values that follow are results of earlier work, collected in US5108993A, “Pharmaceutical composition comprising zidovudine and inosiplex or components thereof for the treatment of aids-related syndromes” (priority 1988, dated 1992).

In this data set the test system is HIV. Conditions: with zidovudine; GB 2 181 128 A; cited from earlier work.

For the molecule interleukine II: interleukine II, the effect on zidovudine entry is on record as “synergistic effect”.

B1: beta-interferon: alpha-, beta, and gamma-interferons (protein, UniProt P01574 22-187, looked up)
Interferon beta: MSYNLLGFLQRSSNFQCQKLLWQLNGRLEYCLKDRMNFDIPEEIKQLQQFQKEDAALTIYEMLQNIFAIFRQDSSSTGWNETIVENLLANVYHQINHLKTVLEEKLEKEDFTRGKLMSSLHLKRYYGRILHYLKAKEYSHCAWTIVRVEILRNFYFINRLTGYLRN
Consider B1, for which the effect on zidovudine result is on record as “synergistic effect”.
